Measured values: paper PMC3351407

Target: HIV-1 clade C Env 11-3.J3 (HIV-1 (clade C))

Substance “soluble CD4 (from UniProt P01730 26-396) (receptor)” has an IC50 of neutralisation of Env-pseudotyped virus by sCD4 in TZM-bl cells (luciferase); sCD4 interferes with the Env-CD4 interaction of over 25 µg/mL.
